Data as given in publication PMC9040744 (mBio, 2022).

How the values were obtained:
[1] = target: JUNV GP1 (Junín virus GP1 glycoprotein, residues 87 to 232) (Junín virus (JUNV), strain XJ13 …, UniProt C1K9J9); experiment: ELISA; conditions: both partners purified
[2] = target: MACV GP1 (Machupo virus GP1 glycoprotein, residues 87 to 257) (Machupo virus (MACV)., UniProt Q6PXS3); experiment: ELISA

B1: NAb JUN1 (full-length mouse monoclonal antibody) (antibody, V domains shown)
VH: LVQSVETGGGLVRPGNSLKLSCVTSGFTFSNYQMHWLRQPPGKRLEWIAVITVKSDNYGANYVESVKGRFAISRDDSKSSVYLEMNRLREEDTATYFCSRSGIYDGYYAYAMDYWGQGTSVTVSS
VL: SVVMTQSQKFMSTSVGDRVSITCKASQIVGTSVAWYQQKAGQSPKLLIYWASTRHTGVPDRFTAGGSGTDFTLTITNVQSEDLADYFCQQYATYPLTFGSGTKLELK
notes: also called JUN1 IgG; MAb JUN1; source: HEK293F, cotransfected heavy and light chain plasmids, purified (protein G); copies: 2 + 2
binding result [1]: binds | binding result [2]: no binding (tested: 10 μg/mL)

B2: JUNV GP1-specific NAb OD01 (antibody, V domains shown)
VH: EVQLQQSGTVLARPGASVKMSCKASGYTFTSYWMHWIKQRPGQGLEWIGAIYPGDSDTKYNQKFKGKAKLTAVTSTSTAYMELSSLTNEDSAVYYCTRRNTLTGDYFDYWGQGTTLTVSS
VL: DIVLTQSPASLAVSLGQRATISCRASESVDDYGISFMNWFQQKPGQPPKLLIYTASSQGSGVPARFSGSGSGTDFSLNIHPMEEDDTAMYFCQQSKEVPYTFGGGTKLEIK
binding result [1]: binds | binding result [2]: no binding (tested: 10 μg/mL)

B3: NAb MAC1 (full-length mouse monoclonal antibody) (antibody, V domains shown)
VH: QVQLQQSGAELVKPGASVKISCKASGYAFGSHWMNWVKQRPGKGLEWIGQIYPGDGDTNYNGKFKGKATLTADKSSSTAYMQFSSLTSEDSAVYFCARDDYGTRYYFDYWGQGTTLTVSS
VL: DIQMTQTTSSLSASLGDRVSISCRASQDINNYLNWYQQKPDGTVKLLIHYTSRLRSGVPSRFSGSGFGTDYSLTITNLEQEDIATYFCQQGKTLPLTFGAGTKLEIK
notes: also called MAb MAC1; source: HEK293F, cotransfected heavy and light chain plasmids, purified (protein G); copies: 2 + 2
binding result [1]: no binding (tested: 10 μg/mL) | binding result [2]: binds
